From US20190127444A1, “Compositions and methods for anti-staphylococcal biologic agents” (NEW YORK UNIVERSITY, published 2019)

T1: LukE, recombinant polyhistidine-tagged variant (S. aureus)
T1 chain: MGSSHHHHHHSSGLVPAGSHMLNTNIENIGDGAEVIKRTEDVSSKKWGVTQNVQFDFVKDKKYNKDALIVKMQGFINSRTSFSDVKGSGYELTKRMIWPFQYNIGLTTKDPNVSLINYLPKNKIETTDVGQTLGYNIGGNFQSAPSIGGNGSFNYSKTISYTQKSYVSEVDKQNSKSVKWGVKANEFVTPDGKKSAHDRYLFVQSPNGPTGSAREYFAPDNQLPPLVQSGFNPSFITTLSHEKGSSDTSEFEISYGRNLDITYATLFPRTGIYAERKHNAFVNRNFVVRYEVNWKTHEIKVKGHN


Assays:
[1] = target: T1, LukE, recombinant polyhistidine-tagged …; test: ELISA, biotinylated toxin on streptavidin plate
[2] = target: T1, LukE, recombinant polyhistidine-tagged …; test: ELISA on LukE and neutralisation assay
[3] = target: T1, LukE, recombinant polyhistidine-tagged …; test: ELISA, biotinylated LukE on streptavidin plate

Row | Binder | binding result [3] | also measured
1 | 1×4 linker variant of Construct 11 (bispecific antibody) heavy: EVQLVETGGGLVKPGGSLRLSCSASRFSFRDYYMTWIRQAPGKGPEWVSHISGSGSTIYYADSVRGRFTISRDNAKSSLYLQMDSLQADDTAVYYCARGGRATSYYWVHWGPGTLVTVSSASTKGPSVFPLAPSSKSTSGGTAALGCLVKDYFPEPVTVSWNSGALTSGVHTFPAVLQSSGLYSLSSVVTVPSSSLGTQTYICNVNHKPSNTKVDKKVEPKSCDKTHTCPPCPAPPVAGPDVFLFPPKPKDTLMISRTPEVTCVVVDVSHEDPEVKFNWYVDGVEVHNAKTKPREEQYNSTYRVVSVLTVLHQDWLNGKEYKCKVSNAALPAPIAKTISKAKGQPREPQVYTLPPSRDELTKNQVSLTCLVKGFYPSDIAVEWESNGQPENNYKTTPPVLDSDGSFFLYSKLTVDKSRWQQGNVFSCSVMHEALHNRFTQKSLSLSPGKGGGGSMLPAPKNLVVSRVTEDSARLSWTAPDAAFDSFHIEYAEPWVWGEAIVLTVPGSERSYDLTGLKPGTEYVVFIGGVKGGHNSTPLSAIFTTGGGGSGGGGSGGGGSGGGGSMLPAPKNLVVSRVTEDSARLSWTAPDAAFDSFWITYEEKFYRGEAIVLTVPGSERSYDLTGLKPGTEYKVWIVGVKGGQGSWPLSAIFTT light: not shown |  | binding result [1]: binds
2 | 3×2 linker variant of Construct 11 (bispecific antibody) heavy: EVQLVETGGGLVKPGGSLRLSCSASRFSFRDYYMTWIRQAPGKGPEWVSHISGSGSTIYYADSVRGRFTISRDNAKSSLYLQMDSLQADDTAVYYCARGGRATSYYWVHWGPGTLVTVSSASTKGPSVFPLAPSSKSTSGGTAALGCLVKDYFPEPVTVSWNSGALTSGVHTFPAVLQSSGLYSLSSVVTVPSSSLGTQTYICNVNHKPSNTKVDKKVEPKSCDKTHTCPPCPAPPVAGPDVFLFPPKPKDTLMISRTPEVTCVVVDVSHEDPEVKFNWYVDGVEVHNAKTKPREEQYNSTYRVVSVLTVLHQDWLNGKEYKCKVSNAALPAPIAKTISKAKGQPREPQVYTLPPSRDELTKNQVSLTCLVKGFYPSDIAVEWESNGQPENNYKTTPPVLDSDGSFFLYSKLTVDKSRWQQGNVFSCSVMHEALHNRFTQKSLSLSPGKGGGGSGGGGSGGGGSMLPAPKNLVVSRVTEDSARLSWTAPDAAFDSFHIEYAEPWVWGEAIVLTVPGSERSYDLTGLKPGTEYVVFIGGVKGGHNSTPLSAIFTTGGGGSGGGGSMLPAPKNLVVSRVTEDSARLSWTAPDAAFDSFWITYEEKFYRGEAIVLTVPGSERSYDLTGLKPGTEYKVWIVGVKGGQGSWPLSAIFTT light: not shown |  | binding result [1]: binds
3 | 3×3 linker variant of Construct 11 (bispecific antibody) heavy: EVQLVETGGGLVKPGGSLRLSCSASRFSFRDYYMTWIRQAPGKGPEWVSHISGSGSTIYYADSVRGRFTISRDNAKSSLYLQMDSLQADDTAVYYCARGGRATSYYWVHWGPGTLVTVSSASTKGPSVFPLAPSSKSTSGGTAALGCLVKDYFPEPVTVSWNSGALTSGVHTFPAVLQSSGLYSLSSVVTVPSSSLGTQTYICNVNHKPSNTKVDKKVEPKSCDKTHTCPPCPAPPVAGPDVFLFPPKPKDTLMISRTPEVTCVVVDVSHEDPEVKFNWYVDGVEVHNAKTKPREEQYNSTYRVVSVLTVLHQDWLNGKEYKCKVSNAALPAPIAKTISKAKGQPREPQVYTLPPSRDELTKNQVSLTCLVKGFYPSDIAVEWESNGQPENNYKTTPPVLDSDGSFFLYSKLTVDKSRWQQGNVFSCSVMHEALHNRFTQKSLSLSPGKGGGGSGGGGSGGGGSMLPAPKNLVVSRVTEDSARLSWTAPDAAFDSFHIEYAEPWVWGEAIVLTVPGSERSYDLTGLKPGTEYVVFIGGVKGGHNSTPLSAIFTTGGGGSGGGGSGGGGSMLPAPKNLVVSRVTEDSARLSWTAPDAAFDSFWITYEEKFYRGEAIVLTVPGSERSYDLTGLKPGTEYKVWIVGVKGGQGSWPLSAIFTT light: not shown |  | binding result [1]: binds
4 | 3×4 linker variant of Construct 11 (bispecific antibody) heavy: EVQLVETGGGLVKPGGSLRLSCSASRFSFRDYYMTWIRQAPGKGPEWVSHISGSGSTIYYADSVRGRFTISRDNAKSSLYLQMDSLQADDTAVYYCARGGRATSYYWVHWGPGTLVTVSSASTKGPSVFPLAPSSKSTSGGTAALGCLVKDYFPEPVTVSWNSGALTSGVHTFPAVLQSSGLYSLSSVVTVPSSSLGTQTYICNVNHKPSNTKVDKKVEPKSCDKTHTCPPCPAPPVAGPDVFLFPPKPKDTLMISRTPEVTCVVVDVSHEDPEVKFNWYVDGVEVHNAKTKPREEQYNSTYRVVSVLTVLHQDWLNGKEYKCKVSNAALPAPIAKTISKAKGQPREPQVYTLPPSRDELTKNQVSLTCLVKGFYPSDIAVEWESNGQPENNYKTTPPVLDSDGSFFLYSKLTVDKSRWQQGNVFSCSVMHEALHNRFTQKSLSLSPGKGGGGSGGGGSGGGGSMLPAPKNLVVSRVTEDSARLSWTAPDAAFDSFHIEYAEPWVWGEAIVLTVPGSERSYDLTGLKPGTEYVVFIGGVKGGHNSTPLSAIFTTGGGGSGGGGSGGGGSGGGGSMLPAPKNLVVSRVTEDSARLSWTAPDAAFDSFWITYEEKFYRGEAIVLTVPGSERSYDLTGLKPGTEYKVWIVGVKGGQGSWPLSAIFTT light: not shown |  | binding result [1]: binds
5 | Luk26 LukE binding FN3 domain (designed binder) LPAPKNLVVSRVTEDSARLSWTAPDAAFDSFHIEYAEPWVWGEAIVLTVPGSERSYDLTGLKPGTEYVVFIGGVKGGHNSTPLSAIFTT |  | binding result [2]: binds
6 | Luk26E34A (designed binder) LPAPKNLVVSRVTEDSARLSWTAPDAAFDSFHIAYAEPWVWGEAIVLTVPGSERSYDLTGLKPGTEYVVFIGGVKGGHNSTPLSAIFTT | binds | 
7 | Luk26F70A (designed binder) LPAPKNLVVSRVTEDSARLSWTAPDAAFDSFHIEYAEPWVWGEAIVLTVPGSERSYDLTGLKPGTEYVVAIGGVKGGHNSTPLSAIFTT | binds | 
8 | Luk26G72A (designed binder) LPAPKNLVVSRVTEDSARLSWTAPDAAFDSFHIEYAEPWVWGEAIVLTVPGSERSYDLTGLKPGTEYVVFIAGVKGGHNSTPLSAIFTT | binds | 
9 | Luk26W39A (designed binder) LPAPKNLVVSRVTEDSARLSWTAPDAAFDSFHIEYAEPAVWGEAIVLTVPGSERSYDLTGLKPGTEYVVFIGGVKGGHNSTPLSAIFTT | no binding (tested: 1 µM) | 
10 | Luk26W41A (designed binder) LPAPKNLVVSRVTEDSARLSWTAPDAAFDSFHIEYAEPWVAGEAIVLTVPGSERSYDLTGLKPGTEYVVFIGGVKGGHNSTPLSAIFTT | no binding (tested: 1 µM) | 
11 | Luk27 LukE binding FN3 domain (designed binder) LPAPKNLVVSRVTEDSARLSWTAPDAAFDSFPIVYQEWQFYGEAIVLTVPGSERSYDLTGLKPGTEYLVDIYGVKGGSWSYPLSAIFTT |  | binding result [2]: binds
12 | Luk27D70A (designed binder) LPAPKNLVVSRVTEDSARLSWTAPDAAFDSFPIVYQEWQFYGEAIVLTVPGSERSYDLTGLKPGTEYLVAIYGVKGGSWSYPLSAIFTT | no binding (tested: 1 µM) | 
13 | Luk27L68A (designed binder) LPAPKNLVVSRVTEDSARLSWTAPDAAFDSFPIVYQEWQFYGEAIVLTVPGSERSYDLTGLKPGTEYAVDIYGVKGGSWSYPLSAIFTT | binds | 
14 | Luk27W38A (designed binder) LPAPKNLVVSRVTEDSARLSWTAPDAAFDSFPIVYQEAQFYGEAIVLTVPGSERSYDLTGLKPGTEYLVDIYGVKGGSWSYPLSAIFTT | binds | 
15 | Luk27W79A (designed binder) LPAPKNLVVSRVTEDSARLSWTAPDAAFDSFPIVYQEWQFYGEAIVLTVPGSERSYDLTGLKPGTEYLVDIYGVKGGSASYPLSAIFTT | binds | 
16 | Luk27Y72A (designed binder) LPAPKNLVVSRVTEDSARLSWTAPDAAFDSFPIVYQEWQFYGEAIVLTVPGSERSYDLTGLKPGTEYLVDIAGVKGGSWSYPLSAIFTT | binds | 
17 | Luk27Y81A (designed binder) LPAPKNLVVSRVTEDSARLSWTAPDAAFDSFPIVYQEWQFYGEAIVLTVPGSERSYDLTGLKPGTEYLVDIYGVKGGSWSAPLSAIFTT | binds | 
18 | Luk38 LukE binding FN3 domain (designed binder) LPAPKNLVVSRVTEDSARLSWTAPDAAFDSFLIQYQESEKVGEAIVLTVPGSERSYDLTGLKPGTEYTVSIYGVELIYHGWLDFVFSNPLSAIFTT |  | binding result [2]: binds
